Anti-infective test results gathered from many reports (values: NIAID ChemDB through PubChem).

Common to all: tests in culture; organism: Candida albicans

Blank or dashed fields: not listed here. A number after MIC or MFC names an inhibition level or a share of isolates. Rows are shuffled and stem from different studies.

structure	strain or isolate	setting	read by	cells	measure	result
COc1cc(C(=O)Nc2ccc3nn(C4CCCCC4)nc3c2)cc(OC)c1OC	ATCC 10231	-	-	-	MIC	50 µg/mL
CC(/C=C/C=C(\C)C(O)C(C)C(=O)O[C@H]1C[C@@H](C)C=C2C=C[C@]3(C)O[C@@H](O)CC(=O)[C@]3(C)[C@H]21)=C\C=C\C(=O)O	AC3413	-	-	-	MIC	0.78 µg/mL
Fc1ccc(NCc2nnc3n2N=C(c2cc(F)c(Cl)cc2Cl)/C(=C/c2ccc4c(c2)OCO4)S3)cc1Cl	-	-	-	-	MIC	12.5 µg/mL
O=C(Nc1ccc2nn(C3CCCCC3)nc2c1)c1ccccc1	ATCC 10231	-	-	-	MIC	>200 µg/mL
Cc1ccc(-c2c(CN)c(=O)n3[nH]c(-c4ccc(Br)cc4)nc3c2CN)o1	-	-	-	-	MIC	0.78 µg/mL
COc1ccc2[nH]c(=O)c(C(F)(F)F)nc2c1Cl	-	-	-	-	MIC	>200 µM
CC1=C(CCO)C(=O)C(O)=C2C1=CC(=O)[C@@H]1C(C)(C)CCC[C@@]21C	-	-	-	VERO	MIC	0.78 µg/mL
CC(C)(C)N1C(=O)C=CC1=O	ATCC 10231	-	broth dilution	-	MIC80	2 µg/mL
CCC(C)n1ncn(-c2ccc(N3CCN(c4ccc(OC[C@H]5CO[C@](Cn6cncn6)(c6ccc(Cl)cc6Cl)O5)cc4)CC3)cc2)c1=O	2453 strains	-	-	-	MIC90	0.12 µg/mL
CC(=O)Oc1cccc(C(Br)C(Br)c2ccc([N+](=O)[O-])cc2[N+](=O)[O-])c1	PCM 1409 PZH	-	-	-	MIC	75 µg/mL
Fc1ccc(NCc2nnc3n2N=C(c2cc(F)c(Cl)cc2Cl)/C(=C/c2ccc(Cl)cc2Cl)S3)cc1Cl	-	-	-	-	MIC	12.5 µg/mL
Cc1ccc(SC2=C(Sc3ccc(C)c(C)c3)C(=O)c3ncccc3C2=O)cc1C	ATCC 10231	-	-	-	MIC	12.5 µg/mL
Fc1cc(C2=Nn3c(COc4ccc(Cl)cc4)nnc3S/C2=C\c2ccc(Cl)cc2)c(Cl)cc1Cl	-	-	-	-	MIC	6 µg/mL
CC(C)c1nc2ccccc2[nH]c1=O	-	-	-	-	MIC	>200 µM
OC(Cn1cncn1)(Cn1cncn1)c1ccc(F)cc1F	Isolate M27-T-micro	24 h	-	-	MIC90	25 µg/mL
CC(=O)Oc1cccc(/C=C/c2ccc([N+](=O)[O-])cc2[N+](=O)[O-])c1	PCM 1409 PZH	-	-	-	MIC	100 µg/mL
CCC(C)n1ncn(-c2ccc(N3CCN(c4ccc(OC[C@H]5CO[C@](Cn6cncn6)(c6ccc(Cl)cc6Cl)O5)cc4)CC3)cc2)c1=O	Isolate CA-8	-	-	-	MIC	>8 µg/mL
Cn1nc2ccc(NC(=O)c3ccc(Cl)cc3)cc2n1	ATCC 10231	-	-	-	MIC	100 µg/mL
CCCCCCCCCC(=O)N[C@@H](CCCN=C(N)N)C(=O)NCCCNC(=O)[C@H](CCCN=C(N)N)NC(=O)CCCCCCCCC	-	-	-	-	MIC	166 µM
Fc1cc(C2=Nn3c(COc4ccccc4Cl)nnc3S/C2=C\c2ccc(Cl)cc2Cl)c(Cl)cc1Cl	-	-	-	-	MIC	12.5 µg/mL
NC(N)=NCCC[C@H](NC(=O)Cc1ccccc1)C(=O)NCCCCCCCCNC(=O)[C@H](CCCN=C(N)N)NC(=O)Cc1ccccc1	-	-	-	-	MIC	319 µM
O=C(Nc1ccc2nn(C3CCCCC3)nc2c1)C(Cl)Cl	ATCC 10231	-	-	-	MIC	25 µg/mL
Cc1nc2c(CN)c(-c3ccc(C)o3)c(CN)c(=O)n2[nH]1	-	-	-	-	MIC	1.56 µg/mL
C[C@H]1[C@H](O)[C@@H](C)/C=C/C=C/C=C/C=C/C=C/C=C/C=C/[C@H](O[C@@H]2O[C@H](C)[C@@H](O)[C@H](N)[C@@H]2O)C[C@@H]2O[C@](O)(C[C@@H](O)C[C@@H](O)CC[C@H](O)[C@@H](O)C[C@@H](O)CC(=O)O[C@H]1C)C[C@H](O)[C@H]2C(=O)O	58 strains	-	-	-	MIC90	1 µg/mL
O=C1C(Sc2ccc(Cl)cc2)=C(Sc2ccc(Cl)cc2)C(=O)c2ncccc21	ATCC 10231	-	-	-	MIC	6.3 µg/mL
Fc1cc(C2=Nn3c(CNc4ccc(Cl)cc4)nnc3S/C2=C\c2ccc3c(c2)OCO3)c(Cl)cc1Cl	-	-	-	-	MIC	6 µg/mL
C=CCc1ccc(OC)c(OC)c1	3001	-	turbidity	-	MIC90	350 µg/mL
Fc1cc(C2=Nn3c(COc4ccccc4Cl)nnc3S/C2=C\c2ccc3c(c2)OCO3)c(Cl)cc1Cl	-	-	-	-	MIC	6 µg/mL
CC(C)(C)c1ccccc1N1C(=O)C=CC1=O	ATCC 10231	-	broth dilution	-	MIC80	4 µg/mL
O=C1C(Sc2cccc(Sc3ccc4ccccc4c3)c2)=C(Sc2cccc(Sc3ccc4ccccc4c3)c2)C(=O)c2ncccc21	ATCC 10231	-	-	-	MIC	12.5 µg/mL
C[C@H]1[C@H](O)[C@@H](C)/C=C/C=C/C=C/C=C/C=C/C=C/C=C/[C@H](O[C@@H]2O[C@H](C)[C@@H](O)[C@H](N)[C@@H]2O)C[C@@H]2O[C@](O)(C[C@@H](O)C[C@@H](O)CC[C@H](O)[C@@H](O)C[C@@H](O)CC(=O)O[C@H]1C)C[C@H](O)[C@H]2C(=O)O	166 isolates	-	-	-	MIC50	0.5 µg/mL
O=C1C=CC(=O)N1c1ccc([N+](=O)[O-])cc1	ATCC 10231	-	broth dilution	-	MIC80	2 µg/mL
CCC(C)CC(C)CCCCCCCCC(=O)N[C@H]1C[C@@H](O)[C@H](NCCN)NC(=O)[C@@H]2[C@@H](O)CCN2C(=O)[C@H]([C@H](O)CCN)NC(=O)[C@H]([C@H](O)[C@@H](O)c2ccc(O)cc2)NC(=O)[C@@H]2C[C@@H](O)CN2C(=O)[C@H]([C@@H](C)O)NC1=O	C-43	-	broth dilution	-	MIC	0.06 µg/mL
COc1ccc2ncc(=O)[nH]c2c1	-	-	-	-	MIC	>200 µM
O=C1C=CC(=O)N1c1ccc(Br)cc1	ATCC 10231	-	broth dilution	-	MIC80	1 µg/mL
O=c1[nH]c2ccc(Cl)cc2nc1C(F)(F)F	-	-	-	-	MIC	>200 µM
CCCCCCCCC(=O)[C@H]1O[C@H]1C(=O)NCc1ccccc1	SC5314	-	-	-	MIC	12.5 µg/mL
OC(Cn1cncn1)(Cn1cncn1)c1ccc(F)cc1F	-	-	-	-	MIC	0.097 µg/mL
O=c1cnc2ccc(Cl)c(Cl)c2[nH]1	-	-	-	-	MIC	>200 µM
NC(N)=NCCC[C@H](NC(=O)Cc1ccccc1)C(=O)NCCCCCCCCCCCCCCNC(=O)[C@H](CCCN=C(N)N)NC(=O)Cc1ccccc1	-	-	-	-	MIC	143 µM
CC(C)S(=O)(=O)N1CCN(c2cnn(-c3cc(F)cc(F)c3)c(=O)c2OC2CCC(F)C2)CC1	C697	-	broth dilution	-	MIC	0.06 µg/mL
C[C@H]1[C@H](O)[C@@H](C)/C=C/C=C/C=C/C=C/C=C/C=C/C=C/[C@H](O[C@@H]2O[C@H](C)[C@@H](O)[C@H](N)[C@@H]2O)C[C@@H]2O[C@](O)(C[C@@H](O)C[C@@H](O)CC[C@H](O)[C@@H](O)C[C@@H](O)CC(=O)O[C@H]1C)C[C@H](O)[C@H]2C(=O)O	40 isolates azole-susceptible	-	-	-	MIC50	0.1 µg/mL
Cc1cc(Cl)nc2c1C(=O)C(Sc1ccc(Cl)cc1)=C(Sc1ccc(Cl)cc1)C2=O	ATCC 10231	-	-	-	MIC	3.2 µg/mL
CS(C)=O	G2-sensitive	-	-	-	MIC	6.25 µg/mL
CC1(C)S[C@@H]2[C@H](NC(=O)[C@H](N)c3ccccc3)C(=O)N2[C@H]1C(=O)O	ATCC 2002	-	broth dilution	-	MIC	0.6 µg/mL
CC(C)c1nc2cc(Cl)ccc2[nH]c1=O	-	-	-	-	MIC	>200 µM
Oc1ccc2c(c1)CCc1ccc(cc1)Oc1cc(ccc1O)CCc1cccc(O)c1-2	SC5314	-	broth dilution	-	MIC80	16 µg/mL
CCc1ccc(C2CC(=NOCc3ccccc3)CC(c3ccc(CC)cc3)N2C)cc1	-	-	-	-	MIC	100 µg/mL
O=c1[nH]c2ccc(Cl)cc2nc1CBr	-	-	-	-	MIC	>200 µM
Fc1ccc(NCc2nnc3n2N=C(c2cc(F)c(Cl)cc2Cl)/C(=C/c2ccc(Cl)cc2)S3)cc1Cl	-	-	-	-	MIC	6 µg/mL
CCCCC/C=C/CCC(=O)[C@H]1O[C@H]1C(=O)N1COC1	SC5314	-	-	-	MIC	25 µg/mL
Nc1cccc2nc(C(F)(F)F)c(=O)[nH]c12	-	-	-	-	MIC	>200 µM
O=C1C(Sc2ccc(Cl)c(Cl)c2)=C(Sc2ccc(Cl)c(Cl)c2)C(=O)c2ncccc21	ATCC 10231	-	-	-	MIC	6.3 µg/mL
COc1c(O)c2c(=O)cc(OC)c3c4c(OC)cc(=O)c5c(O)c(OC)c6c(c(c1CC(C)=C6OC(C)=O)c23)c54	-	-	-	-	MFC	>100 µg/mL